Pooled drug test results. Numbers come from NIAID ChemDB, via PubChem.

All rows: whole-cell or culture tests; organism: Mycobacterium avium; read-out: MIC

An empty or dashed field is not shown. Lines come from different laboratories, so protocols vary.

structure,strain,conditions,result
CCc1cc(C(N)=S)ccn1,3337-4,,5 µg/mL
COc1ccc2oc(=O)n(-c3ccc(Cl)cc3)c(=O)c2c1,CNCTC MY330/88,,62.5 µM
CCCCCOc1ccc(NC(=O)OC(C)CN2CCCCC2)cc1,MY330/88,,62.5 µM
CC(C)N=c1cc2n(-c3ccc(Cl)cc3)c3ccccc3nc-2cc1Nc1ccc(Cl)cc1,1389,,3.3 µg/mL
Oc1ccccc1C(=S)NCc1ccc(F)cc1,MY330/88,,1 µg/mL
c1ccc(/C(Cn2ccnc2)=N\OCc2cccc3ccccc23)cc1,103317,,23.4 µM
CCCCCOc1ccccc1NC(=O)OC(COCC)CN1CCCCC1,MY330/88,,250 µM
COc1ccc2c(=O)n(-c3ccc(C(F)(F)F)cc3)c(=O)oc2c1,CNCTC MY330/88,,16 µM
CCn1c(S)c(N=NC(N)=O)c2ccccc21,CNCTC MY80/72,,500 µM
Cc1ccc(CNC(=O)c2cc(C)ccc2O)cc1,MY330/88,,62.5 µg/mL
Cc1ccc(-n2c(=O)oc3ccc(C)cc3c2=S)cc1,MY330/88,14 d,1 µM
Cc1ccc(CSc2nc3ccc(C)cc3[nH]2)cc1,MY330/88,,>32 µM
Clc1ccc(/C(Cn2ccnc2)=N\OC/C=C/c2ccccc2)cc1,103317,,22.7 µM
Cc1ccc2c(=O)n(-c3ccc(N(C)C)cc3)c(=O)oc2c1,CNCTC MY330/88,,62 µM
Cc1ccc2nc(SCc3ccc(C(F)(F)F)cc3)[nH]c2c1,MY330/88,,32 µM
Cc1ccc2oc(=O)n(-c3ccc(C#N)cc3)c(=O)c2c1,CNCTC MY330/88,,32 µM
Cc1ccc2nc(SCc3ccc(F)cc3)[nH]c2c1,MY330/88,,62 µM
Clc1ccc(C(Cn2ccnc2)NC/C=C/c2ccccc2)cc1,103317,,94.7 µM
Cc1cccc(C(N)=Nc2nc(-c3ccccn3)cc3ccccc23)c1,SK-47,,2 µg/mL
Cc1ccc2oc(=O)n(-c3ccccc3)c(=S)c2c1,MY330/88,21 d,4 µM
COc1ccc(CSc2nc3ccc(C)cc3[nH]2)cc1,MY330/88,,>62 µM
CCOC(=O)c1ccc(-n2c(=O)oc3ccccc3c2=O)cc1,CNCTC MY330/88,,62.5 µM
CCOC(=O)C(=O)N=Nc1c(S)n(CC)c2ccccc12,CNCTC MY66/72,,>1000 µM
Cc1ccc(CNC(=S)c2cc(C)ccc2O)cc1,MY330/88,,0.25 µg/mL
CCCCCCCCCCCCNC[C@H]1O[C@H](O[C@H]2O[C@H](CNCCCCCCCCCCCC)[C@@H](O)[C@H](O)[C@H]2O)[C@H](O)[C@@H](O)[C@@H]1O,NJ168,,8 µg/mL
Cc1ccc2c(=O)n(-c3ccccc3)c(=O)oc2c1,CNCTC MY330/88,,62 µM
CCCCCCCCCCCC(N)=NC[C@H]1O[C@H](O[C@H]2O[C@H](CN=C(N)CCCCCCCCCCC)[C@@H](O)[C@H](O)[C@H]2O)[C@H](O)[C@@H](O)[C@@H]1O,NJ3404,,8 µg/mL
CCCCCCCCCCOc1cccc(NC(=O)OCC[NH+]2CCCC2)c1,MY330/88,,16 µM
CC[C@H]1OC(=O)[C@H](C)C(=O)[C@H](C)[C@@H](O[C@@H]2O[C@H](C)C[C@H](N(C)C)[C@H]2O)[C@](C)(OC)C[C@@H](C)C(=O)[C@H](C)[C@H]2N(CCCCn3cnc(-c4cccnc4)c3)C(=O)O[C@]12C,Isolate 1110,,40 µg/mL
Cc1ccc2oc(=S)n(-c3cccc(Cl)c3)c(=S)c2c1,MY330/88,14 d,2 µM
CN1C(=S)C(=O)c2ccccc21,CNCTC D5/93,,63 µM
NC(N)=NC[C@H]1O[C@H](O[C@H]2O[C@H](CN=C(N)N)[C@@H](O)[C@H](O)[C@H]2O)[C@H](O)[C@@H](O)[C@@H]1O,NJ168,,>128 µg/mL
C(=C\c1ccccc1)/CO/N=C(/Cn1ccnc1)c1ccccc1,103317,,25.2 µM
Cc1ccc2oc(=O)n(-c3cccc(F)c3)c(=S)c2c1,MY330/88,21 d,16 µM
C(=C\c1ccccc1)/CNc1ccc(Cn2ccnc2)cc1,103317,,34.6 µM
Cc1ccc2nc(SCc3ccc(F)c(F)c3)[nH]c2c1,MY330/88,,>62 µM
CCCCCCOc1ccc(NC(=O)OC(COCC)CN2CCCCC2)cc1,MY330/88,,32 µM
CCCCCCCCCCOc1ccccc1NC(=O)OCCN1CCOCC1,MY330/88,,32 µM
Cc1ccc2oc(=S)n(-c3ccc(Cl)cc3)c(=S)c2c1,MY330/88,14 d,4 µM
CCCCCCCCOc1ccccc1NC(=O)OCCN(C)C,MY330/88,,16 µM
Clc1ccc(/C(Cn2ccnc2)=N\OCc2ccccc2)c(Cl)c1,103317,,22.2 µM
Cc1cccc(O)c1C(=O)NCc1ccc(Cl)cc1,MY330/88,,32 µg/mL
CCCCCCCCOc1ccccc1NC(=O)OCCN1CCOCC1,MY330/88,,32 µM
Cc1ccc(C(Cn2ccnc2)OCc2cccc3ccccc23)cc1,103317,,1.46 µM
CCCCC(CC)CNC[C@H]1O[C@H](O[C@H]2O[C@H](CNCC(CC)CCCC)[C@@H](O)[C@H](O)[C@H]2O)[C@H](O)[C@@H](O)[C@@H]1O,NJ211,,16 µg/mL
Clc1ccc(/C(Cn2ccnc2)=N/OCc2ccc(-c3ccccc3)cc2)cc1,103317,,19.9 µM
Cc1ccc2nc(SCc3c(F)cccc3[N+](=O)[O-])[nH]c2c1,MY330/88,,125 µM
O=C1C(=S)N(Cc2ccccc2)c2ccccc21,CNCTC MY80/72,,250 µM
CCCCCCNC[C@H]1O[C@H](O[C@H]2O[C@H](CNCCCCCC)[C@@H](O)[C@H](O)[C@H]2O)[C@H](O)[C@@H](O)[C@@H]1O,NJ3404,,>128 µg/mL
Cc1ccc2oc(=O)n(-c3ccc(Cl)cc3)c(=O)c2c1,CNCTC MY330/88,,32 µM
[N-]=[N+]=NC[C@H]1O[C@H](O[C@H]2O[C@H](CN=[N+]=[N-])[C@@H](O)[C@H](O)[C@H]2O)[C@H](O)[C@@H](O)[C@@H]1O,NJ3404,,>128 µg/mL
COc1ccccc1NC(=O)OCC[NH+]1CCCC1,MY330/88,,>1000 µM
CCCCCCCOc1cccc(NC(=O)OCCN2CCCCC2)c1,MY330/88,,16 µM

A second listing of 6 rows from above:

structure,strain,conditions,result
COc1ccc2oc(=O)n(-c3ccc(Cl)cc3)c(=O)c2c1,CNCTC MY330/88,,62.5 µM
Cc1ccc2oc(=O)n(-c3ccccc3)c(=S)c2c1,MY330/88,21 d,4 µM
CC(C)N=c1cc2n(-c3ccc(Cl)cc3)c3ccccc3nc-2cc1Nc1ccc(Cl)cc1,1389,,3.3 µg/mL
CCCCCOc1ccc(NC(=O)OC(C)CN2CCCCC2)cc1,MY330/88,,62.5 µM
Cc1ccc(-n2c(=O)oc3ccc(C)cc3c2=S)cc1,MY330/88,14 d,1 µM
C(=C\c1ccccc1)/CO/N=C(/Cn1ccnc1)c1ccccc1,103317,,25.2 µM